PubChem BioAssay AID624099, ICCB-Longwood | 2012

- Screen: 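Human genes that papillomavirus E2 requires to repress the HPV18 LCR promoter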 (primary screen)
- Cells: human C33A cervical carcinoma cells (HPV-negative) stably expressing BPV1 E2 and an HPV18 LCR luciferase reporter
- Reagent: siRNA pool against human genes, 40 nM
- Timing: 72 h
- Measurement: 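HPV18 LCR reporter light per well, converted to plate-wise z-scores that exclude control wells, and averaged over triplicate plates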
- Direction: mean z-score and z-score: higher = stronger reporter signal, weaker E2 silencing
- Rule for the call: 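Mean z ≥ 2 together with z ≥ 2 in two or more of the three replicates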
The whole screen tested about 21,000 reagents; below is a part drawn at random. 497 of all reagents (2.4%) count as active. 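Higher z means weaker E2 silencing; only reporter increases were scored, and knock-downs that hurt cell survival may mask genuine repressor factors.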 Unmarked entries are inactive.

| gene symbol | mean z-score | z-score, replicate A | z-score, replicate B | z-score, replicate C |
| --- | --- | --- | --- | --- |
| TLE6 (TLE family member 6, subcortical maternal complex member) | 0.28 | 0.33 | 0.02 | 0.49 |
| TGM2 (transglutaminase 2) | 0.22 | 0.32 | 0.08 | 0.26 |
| PWWP3B (PWWP domain containing 3B) | -0.89 | -0.9 | -1.01 | -0.77 |
| OR13C2 (olfactory receptor family 13 subfamily C member 2) | 1.39 | 1.39 | 1.28 | 1.51 |
| KRTAP4-7 (keratin associated protein 4-7) | 0.23 | 0.35 | 0.11 | 0.24 |
| SPRY1 (sprouty RTK signaling antagonist 1) | -0.12 | -0.05 | -0.32 | 0.02 |
| OTOS (otospiralin) | -0.04 | -0.07 | 0.01 | -0.08 |
| CORT (cortistatin) | 0.26 | -0.05 | 0.47 | 0.35 |
| NCBP2 (nuclear cap binding protein subunit 2) | 0.56 | 0.42 | 0.81 | 0.45 |
| LOC401169 (retired record) | 2.8 (active) | 2.61 | 2.26 | 3.52 |
| DHX30 (DExH-box helicase 30) | -0.61 | -0.69 | -0.5 | -0.66 |
| GPR22 (G protein-coupled receptor 22) | 0.44 | 0.37 | 0.67 | 0.27 |
| CALB2 (calbindin 2) | -0.88 | -0.48 | -1.1 | -1.06 |
| EPC2 (enhancer of polycomb 2) | -0.83 | -0.72 | -0.99 | -0.8 |
| KRTAP19-4 (keratin associated protein 19-4) | 0.01 | 0.08 | 0.01 | -0.07 |
| CDHR1 (cadherin related family member 1) | 1.71 | 1.62 | 1.65 | 1.87 |
| ZNF501 (zinc finger protein 501) | -0.45 | -0.01 | -0.91 | -0.42 |
| CPA5 (carboxypeptidase A5) | -1.22 | -1.61 | -0.97 | -1.08 |
| CDK7 (cyclin dependent kinase 7) | -0.21 | 0.32 | -0.39 | -0.56 |
| FOXI3 (forkhead box I3) | 0.37 | 0.45 | 0 | 0.64 |
| KLHL11 (kelch like family member 11) | -0.83 | -0.96 | -0.54 | -1 |
| HHEX (hematopoietically expressed homeobox) | -0.95 | -0.73 | -1.11 | -1 |
| PHLDA2 (pleckstrin homology like domain family A member 2) | -0.55 | -0.62 | -0.47 | -0.57 |
| GAD2 (glutamate decarboxylase 2) | -0.58 | -0.43 | -0.7 | -0.61 |
| ACTN3 (actinin alpha 3) | -0.6 | -0.91 | -0.56 | -0.31 |
| CSH1 (chorionic somatomammotropin hormone 1) | -0.33 | -0.42 | -0.17 | -0.39 |
| DCBLD2 (discoidin, CUB and LCCL domain containing 2) | -0.79 | -0.95 | -0.93 | -0.49 |
| TRIM31 (tripartite motif containing 31) | -0.05 | 0.19 | -0.53 | 0.18 |
| FSHB (follicle stimulating hormone subunit beta) | -0.16 | -0.21 | -0.09 | -0.17 |
| HNRNPKP1 (heterogeneous nuclear ribonucleoprotein K pseudogene 1) | -0.92 | -0.5 | -1.16 | -1.1 |
| LGR4 (leucine rich repeat containing G protein-coupled receptor 4) | 0.64 | 0.36 | 0.67 | 0.89 |
| ZNF22-AS1 (ZNF22 antisense RNA 1) | -0.65 | -0.87 | -0.37 | -0.7 |
| ZNF252P (zinc finger protein 252, pseudogene) | -1.03 | -0.93 | -1.13 | -1.02 |
| CCDC83 (coiled-coil domain containing 83) | -0.93 | -0.86 | -0.9 | -1.03 |
| THSD7B (thrombospondin type 1 domain containing 7B) | -0.51 | -0.64 | -0.71 | -0.18 |
| KLF8 (KLF transcription factor 8) | -0.27 | -0.36 | -0.2 | -0.25 |
| KMO (kynurenine 3-monooxygenase) | 2.52 (active) | 2.52 | 2.45 | 2.59 |
| PLCG1 (phospholipase C gamma 1) | 0.09 | -0.03 | 0.17 | 0.11 |
| GIP (gastric inhibitory polypeptide) | 0.07 | -0.02 | 0.04 | 0.18 |
| RGS11 (regulator of G protein signaling 11) | -0.97 | -0.64 | -1.18 | -1.09 |
| ZNF827 (zinc finger protein 827) | -0.54 | -0.41 | -0.73 | -0.47 |
| FAM27E3 (family with sequence similarity 27 member E3) | 0.47 | 0.14 | 0.48 | 0.81 |
| CBLN2 (cerebellin 2 precursor) | 0.01 | -0.72 | 0.64 | 0.1 |
| SLC50A1 | -0.98 | -0.92 | -1.04 | -0.98 |
| PPIAP16 (peptidylprolyl isomerase A pseudogene 16) | 0.36 | 0.13 | 0.35 | 0.59 |
| MYLK (myosin light chain kinase) | -0.49 | -0.28 | -0.74 | -0.45 |
| GALT (galactose-1-phosphate uridylyltransferase) | 0.21 | 0.62 | 0 | 0.02 |
| UBXN7 (UBX domain protein 7) | -0.47 | -0.55 | -0.52 | -0.32 |
| ZC2HC1C (zinc finger C2HC-type containing 1C) | 0.38 | 0.13 | 0.01 | 1 |
| NUDT15 (nudix hydrolase 15) | 0.5 | 0.27 | 0.58 | 0.65 |
| DKFZp566H0824 (retired record) | 1.19 | 1.13 | 1.02 | 1.42 |
| ELK4 (ETS transcription factor ELK4) | 0.71 | 0.86 | 0.43 | 0.85 |
| ZNF619 (zinc finger protein 619) | -0.36 | -0.72 | -0.13 | -0.25 |
| ECH1 (enoyl-CoA hydratase 1) | -0.39 | -0.19 | -0.43 | -0.55 |
| LENG8 (leukocyte receptor cluster member 8) | -0.91 | -0.65 | -1.06 | -1 |
| ARF1 (ARF GTPase 1) | -0.99 | -0.72 | -1.22 | -1.01 |
| TCEAL3 (transcription elongation factor A like 3) | -0.51 | -0.52 | -0.76 | -0.26 |

Records above whose gene name begins with F or f:
| gene symbol | mean z-score | z-score, replicate A | z-score, replicate B | z-score, replicate C |
| --- | --- | --- | --- | --- |
| FOXI3 (forkhead box I3) | 0.37 | 0.45 | 0 | 0.64 |
| FSHB (follicle stimulating hormone subunit beta) | -0.16 | -0.21 | -0.09 | -0.17 |
| FAM27E3 (family with sequence similarity 27 member E3) | 0.47 | 0.14 | 0.48 | 0.81 |
